The values below come from paper doi:10.1101/2021.01.05.425432v2 (biorxiv, 2021).

The chains behind the UniProt entries cited, without tags or fusion partners.
UniProt P69996, whole entry: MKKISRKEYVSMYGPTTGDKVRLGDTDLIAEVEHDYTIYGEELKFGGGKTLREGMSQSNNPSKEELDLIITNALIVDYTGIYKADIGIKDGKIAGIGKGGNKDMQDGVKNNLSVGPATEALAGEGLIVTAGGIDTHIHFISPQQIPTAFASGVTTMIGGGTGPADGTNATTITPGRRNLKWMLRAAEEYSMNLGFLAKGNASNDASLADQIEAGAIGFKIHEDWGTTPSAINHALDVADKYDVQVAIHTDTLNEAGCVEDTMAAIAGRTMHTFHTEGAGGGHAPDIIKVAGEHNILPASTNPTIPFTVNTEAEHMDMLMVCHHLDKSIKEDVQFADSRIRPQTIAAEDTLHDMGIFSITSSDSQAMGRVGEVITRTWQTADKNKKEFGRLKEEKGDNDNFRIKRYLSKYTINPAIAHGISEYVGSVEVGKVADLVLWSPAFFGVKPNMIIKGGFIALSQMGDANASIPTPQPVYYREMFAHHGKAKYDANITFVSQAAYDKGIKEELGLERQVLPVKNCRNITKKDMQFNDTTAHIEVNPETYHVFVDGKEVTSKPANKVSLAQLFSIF
UniProt P14916, whole entry partner: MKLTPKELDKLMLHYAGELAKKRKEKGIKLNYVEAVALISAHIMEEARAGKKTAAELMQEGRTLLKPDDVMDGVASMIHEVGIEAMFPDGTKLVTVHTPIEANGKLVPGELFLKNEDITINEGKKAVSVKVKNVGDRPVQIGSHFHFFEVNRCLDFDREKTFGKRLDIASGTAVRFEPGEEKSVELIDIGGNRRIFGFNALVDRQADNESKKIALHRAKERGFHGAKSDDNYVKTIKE

One assay has as its target H. pylori urease (HPU) (Helicobacter pylori, UniProt P69996). As to the kind of experiment: tandem-well NH3 assay, Nessler's reagent, crude extract. The format is biochemical. The settings on record: 25 mM urea, 100 μM NiCl2, 50 mM phosphate pH 7.4, 37 °C, 30 min preincubation.
The test system of the next assay is O. anthropi urease (OAU). The assay is described as above. The format is biochemical, Brucella anthropi. The following applies: 25 mM urea, 100 μM NiCl2, 50 mM phosphate pH 7.4, 37 °C, 30 min preincubation.

Bounds are passed on as bounds.

For orientation: IC50 means the midpoint of a concentration-inhibition curve.

As to `O=c1c2ccccc2sn1-c1ccccc1`, the IC50 against H. pylori urease (HPU) is above 10 µM; in the assay with O. anthropi urease (OAU) it was 4.9 µM.

In the case of `O=C1c2ccccc2C(=O)N1c1ccccc1`, the concentration for half-maximal inhibition (IC50) on H. pylori urease (HPU) and with O. anthropi urease (OAU) was above 10 µM throughout.
